Results reported in patent US7358249B2, “Heterocyclic compounds having inhibitory activity against HIV integrase” (Shionogi & Co., Ltd., priority 2002, dated 2008).

Biological target: HIV integrase (Human immunodeficiency virus type 1 group M subtype B, UniProt P04585)
Assay: integrase inhibition assay (microtiter plate, substrate DNA / target DNA)
Assay type: biochemical
Conditions: integrase 30 pmol, incubated at 30° C. for 1 hour, OD at 405 nm; concentration at percent inhibition 50%
Experimental: The inhibitory activities against integrase of the presnt compounds were determined by the assay described below.
(1) Preparation of DNA Solutions
Substrate DNA and target DNA synthesized by Amersham Pharmacia Biotech, which sequences were indicated below, were dissolved in KTE buffer (composition: 100 mM KCl, 1 mM EDTA, 10 mM Tris-HCl (pH 7.6)) at a concentration of 2 pmol/μl and 5 pmol/μl, respectively. The DNA solutions were heated and then slowly cooled so that they were annealed with each complement.
(Sequence of Substrate DNA)
(2) Calculations of the percent inhibitions (IC50 values of test compounds)
Streptavidin, obtained from Vector Laboratories, was dissolved in 0.1 M carbonate buffer (composition: 90 mM Na2CO3, 10 mM NaHCO3) at a concentration of 40 μg/ml. After coating each well of microtiter plates (obtained from NUNC) with 50 μl of the above solution at 4° C. over night, each well was washed twice with PBS (composition: […], 0.27 mM KCl, 0.43 mM Na2HPO4, 0.14 mM KH2PO4) and blocked with 300 μl of 1% skim milk in PBS for 30 min. Additionally, each well was washed twice with PBS and added with 50 μl of the substrate DNA solution (2 pmol/μl). […]
The microtiter plates were incubated at 30° C. for 1 hour. […] The optical density (OD) at 405 nm of each well was measured and the percent inhibition was determined by the following expression. […]

O=C(O)c1ccc2cc(Cc3ccc(F)cc3)cnc2c1O
MIA, IC50: 0.12 µg/mL

COC(=O)c1ccc2cc(Cc3ccc(F)cc3)cnc2c1O
MIA, IC50: 0.11 µg/mL
